Results as given in article PMC3642082.

What was measured:
[1] = molecular target: SOSIP.664 gp140 trimer of Clade A KNH1144 sequence (HIV-1 clade A KNH1144); assay: ITC
[2] = molecular target: PGT121+gp120 complex (human | HIV-1 JRFL) (UniProt Q75760); assay: ITC; sequential binding: the mixed sample of the first titration left in the cell, then Fab or sCD4 added in a second titration; 20 mM Tris, 150 mM NaCl, pH 8.0; single-site binding model
[3] = molecular target: PGT123+gp120 complex (human | HIV-1 JRFL) (UniProt Q75760); assay: as above
[4] = molecular target: PGT122+gp120 complex (human | HIV-1 JRFL) (UniProt Q75760); assay: as above

Q: How did the Kd [1] turn out when “soluble CD4 (from UniProt P01730) (receptor)” was run?
A: 0.579 µM

Q: And the dH [1]?
A: -23.9 kcal/mol

Q: What about the stoichiometry N [1] of the same substance?
A: 2.2

Q: What about the Kd [2] of the same substance?
A: 13.4 µM

Q: What about the Kd [3] of the same substance?
A: 2.2 µM

Q: And the Kd [4]?
A: 11.2 µM
